Results of unrelated studies side by side (data: NIAID ChemDB).

Common to all: cytotoxicity tests; cells: K562; endpoint: CC50

An empty or dashed field is not shown.

compound | read by | value
CCOC(=O)[C@@]1(C)CC[C@]2(C)CC[C@]3(C)C(=CC(=O)[C@@H]4[C@@]5(C)CC/C(=N\OCc6ccc7ccccc7c6)C(C)(C)[C@@H]5CC[C@]43C)[C@@H]2C1 | MTT | >100 µM
CCN(CC)C(=S)Sc1ncnc(N2CC[N+]3(CC2)CC[N+]2(CCN(c4ncnc(SC(=S)N(CC)CC)c4[N+](=O)[O-])CC2)CC3)c1[N+](=O)[O-] | - | >224.2 µg/mL
Cc1cc(O)c2c(c1)C(=O)c1cc(OCC(=O)c3ccccc3)cc(O)c1C2=O | MTT | >100 µM
Cn1ncc(C#N)c1/N=c1\ssnc1Cl | - | 5 µM
CCOC(=O)[C@@]1(C)CC[C@]2(C)CC[C@]3(C)C(=CC(=O)[C@@H]4[C@@]5(C)CC/C(=N\OCc6ccc(Cl)c(Cl)c6)C(C)(C)[C@@H]5CC[C@]43C)[C@@H]2C1 | MTT | 30.83 µM
CCOC(=O)c1cnc(SC)nc1N1CC[N+]2(CC1)CC[N+]1(CCN(c3nc(SC)ncc3C(=O)OCC)CC1)CC2 | - | >72.5 µg/mL
CCOC(=O)[C@@]1(C)CC[C@]2(C)CC[C@]3(C)C(=CC(=O)[C@@H]4[C@@]5(C)CC/C(=N\OCc6cccc(Br)c6)C(C)(C)[C@@H]5CC[C@]43C)[C@@H]2C1 | MTT | 86.53 µM
N#Cc1cnn(CCc2ccccc2)c1/N=c1\ssnc1Cl | - | 3 µM
CSc1nc(Cl)c(C=O)c(N2CC[N+]3(CC2)CC[N+]2(CCN(c4nc(SC)nc(Cl)c4C=O)CC2)CC3)n1 | - | >55.2 µg/mL
Cc1ccccc1Cn1nnc(C#N)c1/N=c1\ssnc1Cl | - | 8 µM
COc1cc([C@@H]2c3cc4c(cc3[C@@H](O[C@@H]3O[C@@H]5CO[C@@H](C)O[C@H]5[C@H](O)[C@H]3O)[C@H]3COC(=O)[C@H]23)OCO4)cc(OC)c1O | - | 0.3 µg/mL
CCOC(=O)[C@@]1(C)CC[C@]2(C)CC[C@]3(C)C(=CC(=O)[C@@H]4[C@@]5(C)CC/C(=N\OCc6ccc(Cl)cc6)C(C)(C)[C@@H]5CC[C@]43C)[C@@H]2C1 | MTT | 36.85 µM
N#Cc1cnn(CCCc2ccccc2)c1/N=c1\ssnc1Cl | - | 5 µM
CCOC(=O)[C@@]1(C)CC[C@]2(C)CC[C@]3(C)C(=CC(=O)[C@@H]4[C@@]5(C)CC/C(=N\OCc6cc(C)nn6C)C(C)(C)[C@@H]5CC[C@]43C)[C@@H]2C1 | MTT | 24.51 µM
O=[N+]([O-])c1c(N2CC[N+]3(CC2)CC[N+]2(CCNCC2)CC3)ncnc1N1CC[N+]2(CC1)CC[N+]1(CCN(c3ncnc(N4CC[N+]5(CC4)CC[N+]4(CCNCC4)CC5)c3[N+](=O)[O-])CC1)CC2 | - | >146.1 µg/mL
CCOC(=O)[C@@]1(C)CC[C@]2(C)CC[C@]3(C)C(=CC(=O)[C@@H]4[C@@]5(C)CC/C(=N\OCc6cccc7ccccc67)C(C)(C)[C@@H]5CC[C@]43C)[C@@H]2C1 | MTT | >100 µM
N#Cc1ncn(CCc2ccccc2)c1/N=c1\ssnc1Cl | - | 4 µM
CCN(CC)C(=O)N1CCN(c2ncnc(N3CC[N+]4(CC3)CC[N+]3(CCN(c5ncnc(N6CCN(C(=O)N(CC)CC)CC6)c5[N+](=O)[O-])CC3)CC4)c2[N+](=O)[O-])CC1 | - | >203.7 µg/mL

Repeating the first 2 entries:

| compound | read by | value |
|---|---|---|
| CCOC(=O)[C@@]1(C)CC[C@]2(C)CC[C@]3(C)C(=CC(=O)[C@@H]4[C@@]5(C)CC/C(=N\OCc6ccc7ccccc7c6)C(C)(C)[C@@H]5CC[C@]43C)[C@@H]2C1 | MTT | >100 µM |
| CCN(CC)C(=S)Sc1ncnc(N2CC[N+]3(CC2)CC[N+]2(CCN(c4ncnc(SC(=S)N(CC)CC)c4[N+](=O)[O-])CC2)CC3)c1[N+](=O)[O-] | - | >224.2 µg/mL |

Conditions beyond the fields shown may differ between rows. CCn: concentration that lowers growth or viability of the cells by n%.